Anti-infective test results gathered from many reports (values: NIAID ChemDB through PubChem).

Common to all: whole-cell or culture tests; species: Candida tropicalis; endpoint: MIC100

Lines come from different laboratories, so protocols vary. MIC50, MIC90 and the like: level of inhibition, or share of isolates inhibited.

COc1cccc(-c2cc3cccnc3[nH]2)c1 ; strain or isolate: ATCC 201380 ; result: 31.3 µg/mL
C[C@H]1[C@H](O)[C@@H](C)/C=C/C=C/C=C/C=C/C=C/C=C/C=C/[C@H](O[C@@H]2O[C@H](C)[C@@H](O)[C@H](N)[C@@H]2O)C[C@@H]2O[C@](O)(C[C@@H](O)C[C@@H](O)CC[C@H](O)[C@@H](O)C[C@@H](O)CC(=O)O[C@H]1C)C[C@H](O)[C@H]2C(=O)O ; method: broth dilution ; result: <0.3 µg/mL
Nc1ccc(S(=O)(=O)N(n2sc3ccccc3c2=O)S(=O)(=O)c2ccc(N)cc2)cc1 ; strain or isolate: ATCC 1369 ; result: >100 µg/mL
C[C@H]1[C@H](O)[C@@H](C)/C=C/C=C/C=C/C=C/C=C/C=C/C=C/[C@H](O[C@@H]2O[C@H](C)[C@@H](O)[C@H](N)[C@@H]2O)C[C@@H]2O[C@](O)(C[C@@H](O)C[C@@H](O)CC[C@H](O)[C@@H](O)C[C@@H](O)CC(=O)O[C@H]1C)C[C@H](O)[C@H]2C(=O)O ; strain or isolate: MTCC 184 ; method: broth dilution ; result: 2 µg/mL
COc1ccc(/C=N/O)cc1 ; result: 3310 µM
CC(=O)Nc1ccc(S(=O)(=O)N(n2sc3ccc(C)cc3c2=O)S(=O)(=O)c2ccc(NC(C)=O)cc2)cc1 ; strain or isolate: ATCC 1369 ; result: >100 µg/mL
C[C@H]1[C@H](O)[C@@H](C)/C=C/C=C/C=C/C=C/C=C/C=C/C=C/[C@H](O[C@@H]2O[C@H](C)[C@@H](O)[C@H](N)[C@@H]2O)C[C@@H]2O[C@](O)(C[C@@H](O)C[C@@H](O)CC[C@H](O)[C@@H](O)C[C@@H](O)CC(=O)O[C@H]1C)C[C@H](O)[C@H]2C(=O)O ; strain or isolate: CCC 131 ; method: broth dilution / absorbance ; result: 0.5 µg/mL
O=C(O[C@@H]1COC(=O)c2cc(O)c(O)c(O)c2-c2c(cc(O)c(O)c2O)C(=O)OC1C1OC(=O)c2cc(O)c(O)c(O)c2-c2c(O)c(O)c(O)c3c2C(=O)OC1[C@H]3O)c1cc(O)c(O)c(O)c1 ; strain or isolate: ATCC 750 ; method: broth dilution ; result: 580 µg/mL
O/N=C\c1cccs1 ; result: 3930 µM
Nc1ccc(S(=O)(=O)Nn2sc3ccccc3c2=O)cc1 ; strain or isolate: ATCC 1369 ; result: >100 µg/mL
COc1ccc(/C=N\O)cc1 ; method: broth dilution ; result: 1650 µM
COc1ccc(-c2cc3cccnc3[nH]2)cc1 ; strain or isolate: ATCC 201380 ; result: 31.3 µg/mL
O/N=C\c1ccccc1Cl ; result: 1420 µM
Cc1ccc(-c2c3c(N)c4c(nc3nc3c2c(C)nn3-c2ccccc2)CCCC4)cc1 ; strain or isolate: CCC 131 ; method: broth dilution / absorbance ; result: 31.2 µg/mL
C/C(=N/O)C(Cl)(Cl)Cl ; result: 6450 µM
O=C(Oc1cc2cc(Br)cnc2[nH]1)c1ccccc1 ; strain or isolate: ATCC 201380 ; result: 15.6 µg/mL
O/N=C\c1ccccc1O ; result: 3600 µM
C[C@H]1[C@H](O)[C@@H](C)/C=C/C=C/C=C/C=C/C=C/C=C/C=C/[C@H](O[C@@H]2O[C@H](C)[C@@H](O)[C@H](N)[C@@H]2O)C[C@@H]2O[C@](O)(C[C@@H](O)C[C@@H](O)CC[C@H](O)[C@@H](O)C[C@@H](O)CC(=O)O[C@H]1C)C[C@H](O)[C@H]2C(=O)O ; strain or isolate: MTCC 1406 ; method: broth dilution ; result: 1 µg/mL

For reference, 2 entries again:

{"structure": "COc1cccc(-c2cc3cccnc3[nH]2)c1", "strain or isolate": "ATCC 201380", "result": "31.3 µg/mL"}
{"structure": "Nc1ccc(S(=O)(=O)N(n2sc3ccccc3c2=O)S(=O)(=O)c2ccc(N)cc2)cc1", "strain or isolate": "ATCC 1369", "result": ">100 µg/mL"}